A mixed list of measured activities; the numbers were collected in NIAID ChemDB.

Shared fields: growth or infection tests; species: Hepatitis C virus; read by: replicon; endpoint: EC50

Rows are shuffled and stem from different studies.

compound,cells,result
CCC[C@H](NC(=O)C1CC(Oc2cc(-c3ccccc3)nc3cc(OC)ccc23)CN1C(=O)[C@@H](NC(=O)OC(C)(C)C)C(C)C)C(=O)NCc1ccccc1,Huh7,>10 µM
C[C@@]1(O)[C@H](O)[C@@H](CO)O[C@H]1n1ccc(N)nc1=O,HuH6,0.7 µM
CCN(CC)C[C@@H]1C(=O)O[C@H]2[C@H]1CC/C(C)=C/CC[C@@]1(C)O[C@@H]21,Huh7,2.51 µM
C[C@H]1CCC2[C@@H](C)C(=O)N(CCC(=O)N(CC(=O)NCc3ccccc3)c3ccc(Cl)cc3)C3OC4(C)CCC1[C@@]23OO4,Huh 5-2,6 µM
C/C1=C\CC[C@@]2(C)O[C@H]2[C@H]2OC(=O)[C@@H](CN3CCCC3)[C@@H]2CC1,Huh7,2.82 µM
C[C@H]1CCC2[C@@H](C)C(=O)N(CCC(=O)N(CC(=O)NC3CCCCC3)C3CCCC3)C3OC4(C)CCC1[C@@]23OO4,Huh 5-2,7 µM
C=C[C@@H]1C[C@]1(NC(=O)[C@@H]1C[C@@H](c2nc(-c3ccccc3)cs2)CN1C(=O)C(NC(=O)OC1CCCC1)C(C)(C)C)C(=O)NS(=O)(=O)C1CC1,Huh7 cells,0.43 µM
C[C@H]1CCC2[C@@H](C)C(=O)N(CCC(=O)N(CC=O)CC(=O)NCc3ccccc3)C3O[C@]4(C)CCC1[C@@]23OO4,Huh 5-2,>70 µM
C=C1C(=O)O[C@@H]2C[C@@]3(C)CCC[C@H](C)C3=C[C@H]12,Huh7,2.03 µM
CCC[C@H](NC(=O)C1CC(Oc2cc(-c3ccccc3)nc3cc(OC)ccc23)CN1C(=O)[C@@H](NC(=O)OC(C)(C)C)C(C)C)C(=O)O,Huh7,>10 µM
C/C1=C\CC[C@@]2(C)O[C@H]2[C@H]2OC(=O)[C@@H](CN(C)C)[C@@H]2CC1,Huh7,2.22 µM
C=CC1CC1(NC(=O)C1CC(Oc2cc(-c3ccccc3)nc3cc(OC)ccc23)CN1C(=O)[C@@H](NC(=O)OC(C)(C)C)C(C)C)C(=O)NS(=O)(=O)Cc1ccccc1,Huh7,0.28 µM
C[C@H]1CCC2[C@@H](C)C(=O)N(CCC(=O)N(CC(=O)NC(C)(C)CC(C)(C)C)C(C)(C)C)C3OC4(C)CCC1[C@@]23OO4,Huh 5-2,7 µM
CCC[C@H](NC(=O)C1CC(Oc2cc(-c3ccccc3)nc3cc(OC)ccc23)CN1C(=O)[C@@H](NC(=O)OC(C)(C)C)C(C)C)C(=O)CS(=O)(=O)c1ccccc1,Huh7,>10 µM
C[C@H]1CCC2[C@@H](C)C(=O)N(CCC(=O)N(CCc3ccccc3)CC(=O)NCc3ccccc3)C3O[C@]4(C)CCC1[C@@]23OO4,Huh 5-2,7 µM

The first 2 rows once more:

{"compound": "CCC[C@H](NC(=O)C1CC(Oc2cc(-c3ccccc3)nc3cc(OC)ccc23)CN1C(=O)[C@@H](NC(=O)OC(C)(C)C)C(C)C)C(=O)NCc1ccccc1", "cells": "Huh7", "result": ">10 µM"}
{"compound": "C[C@@]1(O)[C@H](O)[C@@H](CO)O[C@H]1n1ccc(N)nc1=O", "cells": "HuH6", "result": "0.7 µM"}

ECn: concentration that inhibits the pathogen or its effect by n%.